A mixed list of measured activities; the numbers were collected in NIAID ChemDB.

Common to all: tests in culture; organism: HIV-1; endpoint: fold resistance

Rows are shuffled and stem from different studies. Blank or dashed fields: not listed here. Fold resistance: result on the changed form divided by that on wild type.

SMILES	method	changes	strain or isolate	cells	value
C[C@@H](CNC(=S)Nc1ccccn1)c1ccccc1	p24	RT-Y181C K103N	NNRTI-resistant (RT Y181C K103N) A17V	PBMC	19
Cc1ccnc2c1NC(=O)c1cccnc1N2C1CC1	cytopathic effect / MTT	RT-L100I	TIBO-resistant L100I (RT-L100I)	MT-4	4.18
O=c1[nH]cnc2c1ncn2[C@H]1CC[C@@H](CO)O1	p24	RT-A62V V75I F77C F116Y Q151M	XM-Q151M	PBMC	3.8
Nc1ccn([C@H]2CC[C@@H](CO)O2)c(=O)n1	p24	RT-L214F	L214F(RT-L214F)	MT-2	1.2
CC(C)(C)C(=O)c1sc(C(=O)NCCc2ccccc2)c(O)c1O		INTG-T66I S153Y			1
CCOCn1c(Cc2ccccc2)c(C(C)C)c(=O)[nH]c1=O	syncytia	RT-L100I	IIIB	CEM	7
N#CCN1C(=O)N(Cc2cccc(F)c2)S(=O)(=O)c2cscc21	syncytia	RT-E138K		CEM	4.83
Cc1csc(NC(=S)NC[C@H](C)c2ccccc2)n1	p24	RT-Y181C	NNRTI-resistant (RT Y181C) A17	PBMC	124
CC(C)OC(=O)OCOP(=O)(CO[C@H](C)Cn1cnc2c(N)ncnc21)OCOC(=O)OC(C)C	p24	RT-L74V	74V (ddI- ddC-resistant RT L74V)	MT-2	0.947
CC(C)Nc1cccnc1N1CCN(C(=O)c2cc3cc(NS(C)(=O)=O)ccc3[nH]2)CC1	p24		6 clinical isolates AZT-resistant	PBMC	1
Cc1c(O)cccc1C(=O)N[C@@H](CSc1ccccc1)[C@H](O)CN1C[C@H]2CCCC[C@H]2C[C@H]1C(=O)NC(C)(C)C	p24	PR-L10I I15V K20R M36I M46L I54V K55R I62V L63P K70Q V82A L89M	Clinical isolate	PBMC	14.3
CC(C)=CCN1Cc2cc(Cl)cc3[nH]c(=S)n(c23)C[C@@H]1C	plaque count	RT-M41L T215Y	HXB2	HT4 + HT4 LacZ-1	1
Cc1cn([C@@H]2O[C@H](CO[Si](C)(C)C(C)(C)C)C3(OS(=O)(=O)C=C3N)[C@H]2O[Si](C)(C)C(C)(C)C)c(=O)n(C)c1=O	syncytia	RT-M184V	IIIB	CEM	0.792
Fc1cccc(F)c1C1SCc2nc3ccccc3n21	cytopathic effect / MTT	RT-V106A	Nevirapine-resistant (RT V106A)	CEM	5.49
CC(C)(C)C(=O)c1sc(C(=O)NCc2ccccc2)c(O)c1O		INTG-V151I			1
COC(=O)N[C@H](C(=O)N[C@@H](Cc1ccccc1)[C@@H](O)CN(Cc1ccc(-c2ccccn2)cc1)NC(=O)[C@@H](NC(=O)OC)C(C)(C)C)C(C)(C)C	p24 / luminescence	L23I E34Q K43I M46I I50L G51A L63P A71V V82A T91A	NL4-3	MT-4	>500
CC(C)=CCN1c2cc(Cl)cc3[nH]c(=S)n(c23)C[C@@H]1C		RT-L74V A98G		MT-4	0.8
Nc1ccn([C@H]2CC[C@@H](CO)O2)c(=O)n1		ddI-2-resistant	IIIB	MT-4	1.89
CC(=O)Oc1ccc(/C=C/C(=O)O[C@@H](C(=O)O)[C@@H](OC(=O)/C=C/c2ccc(OC(C)=O)c(OC(C)=O)c2)C(=O)O)cc1OC(C)=O	cytopathic effect / MTT	AR177-resistant	NL4-3	MT-4	>9
C[C@@H](CNC(=S)Nc1ccc(Br)cn1)c1ccccc1	p24	RT-Y181C K103N	NNRTI-resistant (RT Y181C K103N) A17V	PBMC	360
COc1c(O)c(Cl)c2c(c1OC)-c1c(c(Cl)c(O)c(OC)c1OC)C[C@H](C)[C@H](C)C2	cytopathic effect / MTT	RT-Y181C	N119 nevirapine-resistant (RT Y181C)	MT-2	>14.1
O=c1[nH]cnc2c1ncn2[C@H]1CC[C@@H](CO)O1	p24	RT-K65R	K65R(RT-K65R)	MT-2	6.6
CC(C)c1nc(CN(C)C(=O)N[C@H](C(=O)N[C@@H](Cc2ccccc2)C[C@H](O)[C@H](Cc2ccccc2)NC(=O)OCc2cncs2)C(C)C)cs1	p24	PR-L10I K14R R41K M46L I54V L63P A71V V82A L90M I93L	Clinical isolate	PBMC	>23
Fc1cccc(Cl)c1C1OCc2nc3ccccc3n21	cytopathic effect / MTT	RT-Y181C	Pyridinone-resistant (RT Y181C)	CEM	≥3.86
CC(C)(C)NC(=O)[C@@H]1CN(Cc2cccnc2)CCN1C[C@@H](O)C[C@@H](Cc1ccccc1)C(=O)N[C@H]1c2ccccc2C[C@H]1O	p24	PR-L10I K14R R41K M46L I54V L63P A71V V82A L90M I93L	Clinical isolate	PBMC	23.1
Cc1ccc(NC(=S)N[C@H](C)c2cccc3ccccc23)nc1	p24	RT-Y181C	NNRTI-resistant (RT Y181C) A17	PBMC	29
O=C(NCc1ccc(F)cc1)c1nc(N2CCCCS2(=O)=O)c2cccnc2c1O		INTG-S153Y			2
CCN1C(=O)N(Cc2ccccc2)S(=O)(=O)c2cscc21	syncytia	RT-Y181C		CEM	>111
COc1ccc(S(=O)(=O)N(CC(C)C)C[C@@H](O)[C@H](Cc2ccccc2)NC(=O)O[C@H]2CO[C@H]3OCC[C@H]32)cc1	p24	PR-L10I I15V K20R M36I M46L I54V K55R I62V L63P K70Q V82A L89M	Clinical isolate	PBMC	2
CCN1C(=O)N(Cc2cccc(Cl)c2)S(=O)(=O)c2cscc21	syncytia	RT-Y188H		CEM	10.2
CC(C)=CCN1Cc2cccc3[nH]c(=S)n(c23)C[C@@H]1C	cytopathic effect / MTT	RT-L100I	TIBO-resistant L100I (RT-L100I)	MT-4	262
Cc1occc1C(=S)Nc1ccc(Cl)c(/C=N/OC(C)(C)C)c1	syncytia	RT-Y188L	IIIB	CEM	13
Nc1ncnc2c1ncn2CCOCP(=O)(O)O	p24	RT-A62V V75I F77L F116Y Q151M	RT A62V/V75I/F77L/F116Y/Q151M	MT-2	1
Cc1occc1C(=S)Nc1ccc(Cl)c(C(=O)OC2CCCC2)c1	syncytia	RT-Y188L	IIIB	CEM	500
Cc1cn([C@H]2C[C@H](N=[N+]=[N-])[C@@H](CO)O2)c(=O)[nH]c1=O	p24		410 clinical isolates AZT-resistant	PBMC	22
C[C@@H](CNC(=S)Nc1ccc(Cl)cn1)c1ccccc1	p24	RT-Y181C K103N	NNRTI-resistant (RT Y181C K103N) A17V	PBMC	530
Nc1ncnc2c1ncn2[C@@H]1O[C@H](CO)C[C@@H]1F	p24	RT-P119S L214F	RT P119S L214F	MT-2	2.8
Cc1cn([C@H]2C[C@H](N=[N+]=[N-])[C@@H](CO)O2)c(=O)[nH]c1=O	p24	RT-A62V V75I F77C F116Y Q151M	XM-Q151M	MT-4	6050
O=C1N(Cc2ccccc2)c2cscc2S(=O)(=O)N1Cc1ccccc1	syncytia	RT-Y181C		CEM	>5.78
COc1ccc(S(=O)(=O)N(CC(C)C)C[C@@H](O)[C@H](Cc2ccc(OC)c(Cl)c2)NC(=O)O[C@H]2CO[C@H]3OCC[C@H]32)cc1	p24 / luminescence	L10F V32I M46I I54M A71V I84V	NL4-3	PBMC	6